The values below come from PubChem BioAssay AID2306 (GlaxoSmithKline (GSK), 2010).

This is a selection; strong and weak results do not stand in their true shares. Calls of active or inactive are those of the source. How the calls were made is not given here.

A short description of this assay: inhibition of 3D7 malaria parasite growth – strain 3D7 (AID 2306).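 Further: 0% = DMSO wells and 100% = chloroquine plus artemisinin control wells.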 The settings on record: P. falciparum 3D7 erythrocytic growth, LDH absorbance, 72 h; at 2 µM; hits give high values.
On to `Cn1c(=O)n(C2CCN(CCCC(c3ccc(F)cc3)c3ccc(F)cc3)CC2)c2ccccc21`, for which the growth inhibition was active: 92%.

Take `CC(C)(C)c1cc2cc(N(C(=O)c3ccc(C(F)(F)F)cc3)C3CCN(Cc4ccccc4)CC3)ccc2[nH]1`: the growth inhibition is active: 90%.
